Experimental data: PubChem BioAssay AID504761 (Drosophila RNAi Screening Center, 2011)

Purpose: 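Genome-wide fly cell screen for genes dengue virus requires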 (primary screen)
System: D.Mel-2 cells from Drosophila
Knock-down reagent: long dsRNA against Drosophila genes
Treatment: infection with dengue virus type 2; dose and infection time not stated
Measurement: 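Per well on two replicate plates, imaging gave the percent of cells positive for viral envelope protein, ranked by infection, and a nuclear count of cells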
Direction: infection score: higher = more virus-infected cells; cell count: higher = more cells in the well
Hit rule: 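Very low infection ranking in both replicate wells (chance probability at most 0.065), then a retest showing infection dropped 1.5-fold or more at p below 0.05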
Calls: active = confirmed: knock-down lowers infection; inactive = not picked or not confirmed
The deposit covers about 22,000 reagents; shown is an unselected part of those that have a named target and a result. Of all reagents, 116 (0.52%) got an active call. 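Calls depend on retest data that are not deposited; infection was ranked per plate without normalising between plates; the unit of the infection score is not given.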 Raw values vary from plate to plate and are shown uncorrected. Entries without a mark were called inactive. Reagents against one gene are numbered here. Not all columns of the deposit are shown. The record does not give: the amount of reagent, the time to read-out.

CG13559 (GeneID 37720) | infection score, replicate 1 = 6.68; cell count, replicate 1 = 6314
Met (GeneID 32114) #1 | infection score, replicate 1 = 1.35; cell count, replicate 1 = 5908
Met (GeneID 32114) #2 | infection score, replicate 1 = 4.56; cell count, replicate 1 = 6606
plx (GeneID 40704) #1 | infection score, replicate 1 = 3.01; cell count, replicate 1 = 6276
plx (GeneID 40704) #2 | infection score, replicate 1 = 20.5; cell count, replicate 1 = 6471
plx (GeneID 40704) #3 | infection score, replicate 1 = 4.96; cell count, replicate 1 = 7016
plx (GeneID 40704) #4 | infection score, replicate 1 = 5.56; cell count, replicate 1 = 1025
Ttc7 (GeneID 48387) | infection score, replicate 1 = 12.5; cell count, replicate 1 = 6310
Sox21b (GeneID 39569) #1 | infection score, replicate 1 = 2.49; cell count, replicate 1 = 6519
Sox21b (GeneID 39569) #2 | infection score, replicate 1 = 19.8; cell count, replicate 1 = 5838
Taz (GeneID 36405) #1 | infection score, replicate 1 = 1.11 (active); cell count, replicate 1 = 6694
Taz (GeneID 36405) #2 | infection score, replicate 1 = 23.5; cell count, replicate 1 = 4692
Taz (GeneID 36405) #3 | infection score, replicate 1 = 11.5; cell count, replicate 1 = 6806
CG13795 (GeneID 34049) | infection score, replicate 1 = 6.21; cell count, replicate 1 = 5864

Copied from the list:
plx (GeneID 40704) #2, cell count, replicate 1 = 6471
Result for plx (GeneID 40704) #1 in “cell count, replicate 1”: 6276
